Measured values from several laboratories, pooled; numbers as filed in NIAID ChemDB.

All rows: whole-cell or culture tests; agent: Candida albicans; read-out: MIC

Blank or dashed fields: not listed here. Conditions beyond the fields shown may differ between rows.

structure | strain or isolate | read by | value
Clc1ccc(OC(CCn2ccnc2)c2ccccc2)c(Cl)c1 | 20 strains |  | 5.25 µg/mL
Cc1ccc(C(Cn2ccnc2)OC/C=C/c2ccccc2)cc1 | PR1 |  | 128 µg/mL
C[C@@H](SC1COC(/C=C/C=C/c2ccc(C#N)cc2F)OC1)[C@](O)(Cn1cncn1)c1ccc(F)cc1F | CAL-0097 |  | 4 µg/mL
CC(C)(C)c1ccc(COC(Cn2ccnc2)c2ccc(Cl)cc2Cl)cc1 | CA7 |  | 128 µg/mL
COc1ccc(C2=CC(c3cc(OC)c(OC)c(OC)c3)NC(=S)N2c2ccccc2)cc1OC | DSM 70014 |  | 100 µg/mL
CCCCCCn1c(-c2ccc([N+](=O)[O-])cc2)cc(C(=O)N(CCO)CCO)c1C | 20 strains |  | >200 µg/mL
CSc1nc2ccccc2c(=O)n1/N=C1\C(=O)Nc2ccccc21 |  |  | 156 µg/mL
Clc1ccc(C(Cc2c(Cl)cccc2Cl)Cn2ccnc2)cc1 |  |  | >100 µg/mL
CCC(C)CC(C)CCCCCCCCC(=O)N[C@H]1C[C@@H](O)[C@H](NCCN)NC(=O)[C@@H]2[C@@H](O)CCN2C(=O)[C@H]([C@H](O)CCN)NC(=O)[C@H]([C@H](O)[C@@H](O)c2ccc(O)cc2)NC(=O)[C@@H]2C[C@@H](O)CN2C(=O)[C@H]([C@@H](C)O)NC1=O | 10920 | broth dilution | 0.015 µg/mL
Cc1c(S(=O)(=O)c2ccccc2)[n+](=O)c2cc(Cl)ccc2n1[O-] | Clinical isolate 10 |  | 15.6 µg/mL
Cc1ccccc1N1C(=O)CC(C)C1=O | ATCC 10231 | broth dilution / turbidity | 250 µg/mL
COc1cc(C2CC(c3ccc4c(c3)OCO4)=NN2c2ccccc2)cc(OC)c1OC | DSM 70014 |  | 50 µg/mL
CC1CC(=O)N(c2ccc([N+](=O)[O-])cc2)C1=O | ATCC 10231 | broth dilution / turbidity | 250 µg/mL
CCN(CC)Cn1c(C=Cc2ccc(OC)cc2)nc2ccccc21 |  |  | 35.7 µM
CCCCc1ccc(C(=O)Oc2c(OC)cc3ccnc4c3c2N(C)C=C4)cc1 |  |  | 5 µg/mL
CSc1nc2ccccc2c(=O)n1/N=C1\C(=O)N(CN2CCCCC2)c2ccc(Cl)cc21 |  |  | 156 µg/mL
Clc1ccc(CCC(Cn2ccnc2)c2ccc(Cl)cc2Cl)c(Cl)c1 |  |  | >100 µg/mL
COC(=O)[C@H](CC(C)C)NC(=O)CNC(=O)[C@@H](NC(=O)[C@H](Cc1ccccc1)NC(=O)COc1cc(=O)oc2ccccc12)[C@@H](C)O |  |  | 12.5 µg/mL
Clc1ccc(C(Cn2ccnc2)OCc2cccc3ccccc23)c(Cl)c1 | Y0109 |  | 1 µg/mL
CN(CCCC#CC(C)(C)C)c1cccc2c1CCC(=O)N2 | Clinical isolate 12 |  | 62.5 µg/mL
CCN(CC)Cn1c(C=Cc2ccc(N(C)C)cc2)nc2ccccc21 |  |  | 17.2 µM
CC1CC(=O)N(CCCCc2ccccc2)C1=O | ATCC 10231 | broth dilution / turbidity | 62.5 µg/mL
COC(=O)[C@H](Cc1ccc(O)cc1)NC(=O)[C@@H](NC(=O)[C@H](Cc1ccccc1)NC(=O)COc1c(Br)c(=O)oc2ccccc12)C(C)C |  |  | 6.25 µg/mL
COc1ccc(C2=CC(c3cc(OC)c(OC)c(OC)c3)NC(=S)N2C)cc1OC | DSM 70014 |  | 50 µg/mL
C[C@H]1[C@H](O)[C@@H](C)/C=C/C=C/C=C/C=C/C=C/C=C/C=C/[C@H](O[C@@H]2O[C@H](C)[C@@H](O)[C@H](N)[C@@H]2O)C[C@@H]2O[C@](O)(C[C@@H](O)C[C@@H](O)CC[C@H](O)[C@@H](O)C[C@@H](O)CC(=O)O[C@H]1C)C[C@H](O)[C@H]2C(=O)O | ATCC 90028 |  | 0.5 µg/mL
COC(=O)[C@@H]1CCCN1C(=O)CNC(=O)[C@H](C)NC(=O)[C@@H]1CCCN1C(=O)c1ccccc1-c1cnc(C)[nH]1 |  |  | 25 µg/mL
CSc1nc2ccccc2c(=O)n1/N=C1\C(=O)N(CN(C)C)c2ccccc21 |  |  | 156 µg/mL
Cc1c(C(=O)N2CCN(C)CC2)cc(-c2ccc([N+](=O)[O-])cc2)n1Cc1ccccc1 | 20 strains |  | >200 µg/mL
COC(=O)[C@H](Cc1c[nH]c2ccccc12)OC(=O)[C@H](Cc1cnc[nH]1)NC(=O)COc1c(Br)c(=O)oc2ccccc12 |  |  | 6.25 µg/mL
Oc1ccc(C(=S)N2CCN=C2Cc2cccc3ccccc23)c(O)c1 | ATCC 10231 |  | 50 µg/mL
C[C@H]1[C@H](O)[C@@H](C)/C=C/C=C/C=C/C=C/C=C/C=C/C=C/[C@H](O[C@@H]2O[C@H](C)[C@@H](O)[C@H](N)[C@@H]2O)C[C@@H]2O[C@](O)(C[C@@H](O)C[C@@H](O)CC[C@H](O)[C@@H](O)C[C@@H](O)CC(=O)O[C@H]1C)C[C@H](O)[C@H]2C(=O)O | ATCC 10231 | broth dilution / turbidity | 0.97 µg/mL
CCN(CC)Cn1c(C=Cc2ccc([N+](=O)[O-])cc2)nc2ccccc21 |  |  | 17.1 µM
Oc1ccc(C(=S)N2C=NC(c3ccccc3)C2c2ccccc2)c(O)c1 | ATCC 10231 |  | 50 µg/mL
COC(=O)[C@@H]1CCCN1C(=O)[C@H](Cc1cnc[nH]1)NC(=O)[C@H](C)NC(=O)[C@@H](NC(=O)c1cc(I)ccc1-c1cnc(C)[nH]1)[C@@H](C)O |  |  | 6.25 µg/mL
C(=C\c1ccccc1)/COC(Cn1ccnc1)c1ccccc1 | 5M |  | 128 µg/mL
CC1CC(=O)N(c2ccc(Cl)cc2)C1=O | ATCC 10231 | broth dilution / turbidity | 250 µg/mL
CSc1nc2ccccc2c(=O)n1/N=C1\C(=O)N(CN2CCOCC2)c2ccccc21 |  |  | 78.12 µg/mL
Clc1ccccc1C(c1ccccc1)(c1ccccc1)n1ccnc1 | DSM 70014 |  | 5 µg/mL
CCCCCCCCn1c(-c2ccc([N+](=O)[O-])cc2)cc(C(=O)N(CCO)CCO)c1C | 20 strains |  | >200 µg/mL
O=[n+]1c(Sc2ccccc2)c(CBr)n([O-])c2ccccc21 | Clinical isolate 23 |  | 31.25 µg/mL
Cc1ncc(-c2ccc(I)cc2C(=O)N[C@H](C(=O)N[C@@H](C)C(=O)N[C@@H](Cc2cnc[nH]2)C(=O)N2CCC[C@H]2C(=O)O)[C@@H](C)O)[nH]1 |  |  | 6.25 µg/mL
Cc1c(C(=O)N(CCO)CCO)cc(-c2ccc([N+](=O)[O-])cc2)n1-c1ccccc1Cl | 20 strains |  | >200 µg/mL
CC(C)OC(=O)[C@@H]1OC(c2ccccc2O)O[C@H]1C(=O)OC(C)C | ATCC 10231 | broth dilution | 156 µg/mL
Clc1ccc(C(Cn2ccnc2)OCc2ccc(-c3ccccc3)cc2)c(Cl)c1 | CDCB385 |  | 64 µg/mL
Clc1ccc(C(CCc2ccc(Br)cc2)Cn2ccnc2)c(Cl)c1 |  |  | >100 µg/mL
Cc1c(C(=O)N(CCO)CCO)cc(-c2ccc([N+](=O)[O-])cc2)n1-c1ccc(Cl)cc1 | 20 strains |  | >200 µg/mL
Oc1ccccc1C1OC[C@@H](COCc2ccccc2)O1 | ATCC 10231 | broth dilution | 312.5 µg/mL
Clc1ccc(C(CCc2ccccc2)Cn2ccnc2)c(Cl)c1 |  |  | 100 µg/mL
Oc1ccc(C(=S)N2CCN=C2c2ccccc2)c(O)c1 | ATCC 10231 |  | 100 µg/mL
CCOC(=O)c1cc(-c2ccc(OC)cc2)n(CCn2c([N+](=O)[O-])cnc2C)c1C |  |  | >1024 µg/mL
CCCCCc1ccc(C(=O)Oc2c(OC)cc3ccnc4c3c2N(C)C=C4)cc1 |  |  | 10 µg/mL
C[C@@H]1CC(=O)N(CCCc2ccccc2)C1=O | ATCC 10231 | broth dilution / turbidity | 62.5 µg/mL
CCOc1ccc(C=Cc2nc3ccccc3n2CN(CC)CC)cc1 |  |  | 34.3 µM
CSc1nc2ccccc2c(=O)n1/N=C1\C(=O)N(CN2CCOCC2)c2ccc(Cl)cc21 |  |  | 39.06 µg/mL
Clc1ccc(C(CCc2ccccc2Cl)Cn2ccnc2)c(Cl)c1 |  |  | 10 µg/mL
Fc1ccc(C(CCn2ccnc2)Oc2ccc(Cl)cc2Cl)cc1 | 20 strains |  | 2.55 µg/mL
COc1ccc(/C=c2\sc3n(c2=O)C(c2cc(OC)c(OC)c(OC)c2)C=C(c2ccc(OC)c(OC)c2)N=3)cc1 | DSM 70014 |  | 50 µg/mL
Clc1ccc(C(CCn2ccnc2)Oc2ccc(Cl)cc2Cl)cc1 | 20 strains |  | 2.1 µg/mL
CSc1nc2ccccc2c(=O)n1/N=C1\C(=O)Nc2ccc(Br)cc21 |  |  | 156 µg/mL
CCOc1cc2c(cc1F)n([O-])c(C)c(Cl)[n+]2=O | Clinical isolate 7 |  | 15.6 µg/mL
CCOC(=O)c1cc(-c2ccc([N+](=O)[O-])cc2)n(CCn2c([N+](=O)[O-])cnc2C)c1C |  |  | >1024 µg/mL
COc1cc(O)c2c(c1)C(=O)c1c(cc3c(c1O)-c1c(cc(C)c(C(=O)NC(CO)C(=O)O)c1O)[C@H](OC1OC(C)C(O)C(OC4OCC(O)C(O)C4O)C1O)C3O)C2=O | A9540 |  | 6.3 µg/mL
Cc1ccc(C(Cn2ccnc2)OCc2ccc(C(C)(C)C)cc2)cc1 | CA12 |  | >128 µg/mL

4 of the rows above, restated:

structure | strain or isolate | read by | value
CCC(C)CC(C)CCCCCCCCC(=O)N[C@H]1C[C@@H](O)[C@H](NCCN)NC(=O)[C@@H]2[C@@H](O)CCN2C(=O)[C@H]([C@H](O)CCN)NC(=O)[C@H]([C@H](O)[C@@H](O)c2ccc(O)cc2)NC(=O)[C@@H]2C[C@@H](O)CN2C(=O)[C@H]([C@@H](C)O)NC1=O | 10920 | broth dilution | 0.015 µg/mL
Clc1ccc(C(CCn2ccnc2)Oc2ccc(Cl)cc2Cl)cc1 | 20 strains |  | 2.1 µg/mL
CC1CC(=O)N(c2ccc([N+](=O)[O-])cc2)C1=O | ATCC 10231 | broth dilution / turbidity | 250 µg/mL
CC1CC(=O)N(c2ccc(Cl)cc2)C1=O | ATCC 10231 | broth dilution / turbidity | 250 µg/mL